# Results as given in article PMC11189516, “Structure-guided conversion from an anaplastic lymphoma kinase inhibitor into Plasmodium lysyl-tRNA synthetase selective inhibitors” (Communications Biology, 2024).
# By UniProt entry, the sequences of proteins in these tests, tags left out. Residues count along the entry.
# UniProt Q8IDJ8, 77-583 limits assumed: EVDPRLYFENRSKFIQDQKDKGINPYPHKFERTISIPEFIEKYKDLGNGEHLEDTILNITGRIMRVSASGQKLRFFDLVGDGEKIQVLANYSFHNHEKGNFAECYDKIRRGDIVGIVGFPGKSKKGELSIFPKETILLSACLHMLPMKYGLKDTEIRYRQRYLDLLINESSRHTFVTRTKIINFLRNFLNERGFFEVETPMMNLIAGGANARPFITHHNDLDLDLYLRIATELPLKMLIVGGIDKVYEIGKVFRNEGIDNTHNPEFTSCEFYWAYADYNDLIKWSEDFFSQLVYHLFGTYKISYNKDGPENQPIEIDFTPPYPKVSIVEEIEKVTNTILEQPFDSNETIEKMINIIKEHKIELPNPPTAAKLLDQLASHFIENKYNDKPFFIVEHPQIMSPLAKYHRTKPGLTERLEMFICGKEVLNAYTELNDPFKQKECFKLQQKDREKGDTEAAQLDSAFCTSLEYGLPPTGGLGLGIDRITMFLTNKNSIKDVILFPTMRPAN
# Several values for one entry are separate records, joined by “and”; a condition that tells them apart may be missing. Equal values may be shown once.
# How the values were obtained:
# [1] = biological target: T1, PfLysRS (Plasmodium falciparum, UniProt Q8IDJ8); assay: ATP hydrolysis assay (Kinase-Glo) on PfLysRS; assay type: biochemical
# Experimental: The ATP hydrolysis assays were based on Kinase-Glo luminescent Kit (Promega). The experiment was carried out in Corning 384-well white flat bottom microplates. The buffer in the reaction contains 25 mM Hepes pH 7.4, 140 mM NaCl, 40 mM MgCl2, 30 mM KCl, 1 mM TCEP, 0.1 mg·mL^−1 BSA, and 0.004% Tween-20. The compounds were diluted to different concentrations with a 5-fold gradient.
# For LysRS assays, DMSO was added into negative control wells and L-lysine was removed in positive control wells. 100 nM LysRS in 2.5 μL Hepes buffer was mixed with compounds and incubated for 10 min. Then 5 μL substrate mixture (2 μM ATP, 10 μM L-lysine and 31 nM pyrophosphatase) was added to start the reaction at 37 °C and incubated for 6 h.
# When the reaction reaches the planned time, 10 μL diluted Kinase-Glo reagent (1/50 diluted with a buffer containing 50 mM Tris pH 7.5 and 5% glycerol) was added and incubated for 15 min. Luminescence was measured on the Magellan plate reader (Tecan) and nonlinear regression was performed with Prism (GraphPad).
# [2] = biological target: T1, PfLysRS; assay: Thermal shift assay; assay type: binding
# Experimental: PfLysRS protein was prepared at 10 μM concentration in a buffer containing 20 mM Tris pH 8.0, 200 mM NaCl, 500 μM L-lysine, and 200 μM Compound. Aliquots (18 µL) were added to a 96-well PCR plate and incubated at ambient temperature for 10 min. SYPRO Orange dye (Sigma) was diluted in the assay buffer containing 20 mM Tris pH 8.0 and 200 mM NaCl to a 40× concentration, and 2 µL of the 40× dye solution was added to the PCR plate to bring the final assay volume to 20 µL. After complete mixing, the final solutions were heated from 25 to 90 °C at a rate of 0.015 °C per sec, and fluorescence signals were monitored by QuantStudio 3 (Applied Biosystems by Thermo Fisher Scientific).
# [3] = +Lysine, sheet Figure 6B, listed as 36K4'
smiles,measurement,setting,value
COc1ccc(OC)c(Nc2ncnc(Nc3ccccc3S(=O)(=O)CCCCNC(=O)[C@@H](N)CCCCN)n2)c1,IC50 against PfLysRS,[1],298 nM
same,IC50,[1]; read-out: IC50 against PfLysRS,377 nM
same,"Tm of PfLysRS, Average","[2]; +Lysine, sheet Figure 6B",57.936
same,△Tm of PfLysRS,"[2]; +Lysine, sheet Figure 6B",12.916
same,"Tm of PfLysRS, Average",[2]; [3],56.643
same,"Tm of PfLysRS, single repeat",[2]; [3],56.628 and 56.751 and 56.566
same,△Tm of PfLysRS,[2]; [3],11.623
same,ΔTm of PfLysRS,[2]; in the presence of L-lysine,12.9 °C
